# Experimental data as given in PubChem BioAssay AID651 (University of Pittsburgh Molecular Library Screening Center, 2007).
# This is a selection; strong and weak results do not stand in their true shares. Results filed as inconclusive are left out. The source made the active and inactive calls. Rule as the data show it: active = inhibition above about 48%; inconclusive = no clear call, values can overlap the other calls; inactive = below that.
# Biological target: Gag-Pol polyprotein (Human immunodeficiency virus type 1 group M subtype B (isolate HXB2)) (UniProt P04585)
# Test: HIV-1 RT RNase H inhibitors, retest, confirmation, biochemical (AID 651)
# Conditions: Recombinant RT RNase H, fluorescent RNA/DNA duplex cleavage; at 10 µM; hits give high values
row,SMILES,inhibition
1,O=P(Nc1nccs1)(c1ccccc1)c1nc2ccccc2s1 (configuration not stated),active: 67.8%
2,CCOP1(=S)c2c(C)nn(CCC#N)c2N=C(c2ccc(F)cc2)N1C (configuration not stated),inactive: 15.9%
